Results of unrelated studies side by side (data: NIAID ChemDB).

Common to all: tests in culture; organism: Mycobacterium chelonae

MIC50, MIC90 and the like: level of inhibition, or share of isolates inhibited. Neighbouring rows are from separate reports. An empty or dashed field is not shown.

| SMILES | strain or isolate | method | read-out | setting | result |
|---|---|---|---|---|---|
| CC(C)N=c1cc2n(-c3ccc(Cl)cc3)c3ccccc3nc-2cc1Nc1ccc(Cl)cc1 | - | broth dilution | MIC90 | - | 1 µg/mL |
| CSc1nc(N)c2c(n1)NC(c1ccc(Cl)cc1)CC(c1ccc3c(c1)OCO3)=N2 | MNT1407 | MTT / broth dilution / absorbance | MIC | clinical isolate | >32 µg/mL |
| CCCCCCCCCCCC(CCCCCCCCCCC)NC(=O)NC(CCC(=O)O)(CCC(=O)O)CCC(=O)O | EO-P-1 | - | MIC | - | 106 µg/mL |
| CCCCCCCC1SCC(=O)N1NC(=O)c1ccncc1 | - | agar | MIC | - | 50 µg/mL |
| FC(F)(F)c1cc(-c2ccccc2)nc(N2N=C(/C=C/c3ccc(Cl)cc3)CC2c2ccc(Cl)cc2)n1 | - | resazurin | MIC | - | >20.6 µM |
| CCOC(=O)c1c(-c2ccccc2)c2ccc(Cl)cc2oc1=O | ATCC 35752 | resazurin | MIC90 | - | >100 µg/mL |
| COc1ccc(C2=Nc3c(N)nc(N)nc3NC(c3ccc4c(c3)OCO4)C2)cc1 | MNT1407 | MTT / broth dilution / absorbance | MIC | clinical isolate | >32 µg/mL |
| CCCCCCCCCN(CCCCCCCCC)C(=O)NC(CCC(=O)O)(CCC(=O)O)CCC(=O)O | EO-P-1 | - | MIC | - | 105 µg/mL |
| CSc1nc(N)c2c(n1)NC(c1ccc(C(F)(F)F)cc1)CC(c1ccc3c(c1)OCO3)=N2 | MNT1407 | MTT / broth dilution / absorbance | MIC | clinical isolate | >32 µg/mL |
| C[C@H]1[C@H](C)CC[C@]2(C(=O)O)CC[C@]3(C)C(CC[C@@H]4[C@@]5(C)C[C@H](O)CC(C)(C)[C@@H]5CC[C@]43C)[C@H]12 | - | resazurin | MIC | - | 100 µg/mL |
| CCCCCCCCCCCCCCCCCCCCCCOC(=O)NC(C)(CCC(=O)O)CCC(=O)O | EO-P-1 | - | MIC | - | 630 µg/mL |
| CCCCCCCC1OC(c2ccncc2)=NN1C(C)=O | - | agar | MIC | - | >100 µg/mL |
| CCCCCCCCCCCCCCCCCCCCCOC(=O)NC(CCC(=O)O)(CCC(=O)O)CCC(=O)O | EO-P-1 | - | MIC | - | 5 µg/mL |
| COc1ccc(/C=C/C2=NN(C(=N)N)C(c3ccc(OC)cc3)C2)cc1 | - | resazurin | MIC | - | 3.57 µM |
| CCCCCCCCCCCCCCCOC(=O)NC(CCC(=O)O)(CCC(=O)O)CCC(=O)O | EO-P-1 | - | MIC | - | 36 µg/mL |
| Nc1nc(N)c2c(n1)NC(c1ccc3c(c1)OCO3)CC(c1ccc(Cl)cc1)=N2 | MNT1407 | MTT / broth dilution / absorbance | MIC | clinical isolate | 32 µg/mL |

The first 2 rows once more:

SMILES,strain or isolate,method,read-out,setting,result
CC(C)N=c1cc2n(-c3ccc(Cl)cc3)c3ccccc3nc-2cc1Nc1ccc(Cl)cc1,-,broth dilution,MIC90,-,1 µg/mL
CSc1nc(N)c2c(n1)NC(c1ccc(Cl)cc1)CC(c1ccc3c(c1)OCO3)=N2,MNT1407,MTT / broth dilution / absorbance,MIC,clinical isolate,>32 µg/mL